This test has as its system Wt-SARS-CoV-2. The test is classed as cell-based.

From article PMC10293653 (International Journal of Biological Macromolecules, 2023) come the findings set out here.

For `CC#CCn1c(N2CCC[C@@H](N)C2)nc2c1c(=O)n(Cc1nc(C)c3ccccc3n1)c(=O)n2C` [Linagliptin, linagliptin], the “effect on multiplication of viruses” value is “halted the multiplication of viruses”.
